Compound potency records, mixed from different reports. Data source: NIAID ChemDB in PubChem.

All rows: whole-cell or culture tests; species: Cryptococcus neoformans; endpoint: MIC

Blank or dashed fields: not listed here. Rows are shuffled and stem from different studies.

compound	strain	read by	result
Oc1ccccc1N=Cc1ccccc1	28JF	broth dilution	8 µg/mL
Cc1cc(NS(=O)(=O)c2ccc(N)cc2)no1	IFM 49624		32 µg/mL
C[C@@H]([C@@](O)(Cn1cncn1)c1ccc(F)cc1F)S(C)(=O)=O	R715 (AZOLE-R)		>1000 µM
Oc1cccc(C=Nc2ccccc2O)c1	27JF	broth dilution	4 µg/mL
CCCCCOc1ccc(-c2cc(-c3ccc(C(=O)N[C@H]4C[C@@H](O)[C@@H](O)NC(=O)[C@@H]5[C@@H](O)[C@@H](C)CN5C(=O)[C@H]([C@H](O)CC(N)=O)NC(=O)[C@H]([C@H](O)[C@@H](O)c5ccc(O)c(OS(=O)(=O)O)c5)NC(=O)[C@@H]5C[C@@H](O)CN5C(=O)[C@H]([C@@H](C)O)NC4=O)cc3)no2)cc1	FMR 8411		64 µg/mL
Cn1nc(Cc2ccc(Cl)cc2)c2ccccc2c1=O	Clinical isolate (IM 042074)	broth dilution	15.6 µg/mL
Oc1ccccc1N=Cc1ccc(O)c(O)c1O	ATCC 62066	broth dilution	5.7 µg/mL
COc1cc(/C=C2\CSc3ccccc3C2=O)ccc1O	25		25 µg/mL
COc1cc(O)c2c(c1)C(=O)c1c(cc3c(c1O)-c1c(cc(C)c(C(=O)NCC(=O)O)c1O)[C@H](OC1OC(C)C(N(C)C)C(OC4OCC(O)C(O)C4O)C1O)[C@H]3O)C2=O	IAM 4514		1.6 µg/mL
O=C1/C(=C/c2ccc3ccccc3c2)CSc2ccc(Cl)cc21	93/V		50 µg/mL
Oc1ccccc1C=Nc1ccccc1O	28JF	broth dilution	11.3 µg/mL
Cc1cc(NS(=O)(=O)c2ccc(N)cc2)nc(C)n1	IFM 40215		≥256 µg/mL
Cc1ccc(/C=C2\CSc3ccccc3C2=O)cc1	25		50 µg/mL
CCC(C)CC(C)CCCCCCCCC(=O)N[C@H]1C[C@@H](O)[C@H](NCCN)NC(=O)[C@@H]2[C@@H](O)CCN2C(=O)[C@H]([C@H](O)CCN)NC(=O)[C@H]([C@H](O)[C@@H](O)c2ccc(O)cc2)NC(=O)[C@@H]2C[C@@H](O)CN2C(=O)[C@H]([C@@H](C)O)NC1=O	CBS 889	broth dilution	16 µg/mL
CCC(C)n1ncn(-c2ccc(N3CCN(c4ccc(OC[C@H]5CO[C@](Cn6cncn6)(c6ccc(Cl)cc6Cl)O5)cc4)CC3)cc2)c1=O	ATCC 32264	broth dilution	0.15 µg/mL
C[C@@H](n1cnc2cc(Cl)ccc2c1=O)[C@](O)(Cn1cncn1)c1ccc(F)cc1F	Isolate 124.96		0.0024 µg/mL
Nc1ccc(S(=O)(=O)Nc2ccnn2-c2ccccc2)cc1	IFM 49722		8 µg/mL
Oc1ccccc1N=Cc1cccc(O)c1O	5396	broth dilution	4 µg/mL
COc1ccc(NS(=O)(=O)c2ccc(N)cc2)nn1	IFM 51976		128 µg/mL
CCC(C)n1ncn(-c2ccc(N3CCN(c4ccc(OC[C@H]5CO[C@](Cn6cncn6)(c6ccc(Cl)cc6Cl)O5)cc4)CC3)cc2)c1=O	DUMC140.92		0.031 µg/mL
C[C@H]1[C@H](O)[C@@H](C)/C=C/C=C/C=C/C=C/C=C/C=C/C=C/[C@H](O[C@@H]2O[C@H](C)[C@@H](O)[C@H](N)[C@@H]2O)C[C@@H]2O[C@](O)(C[C@@H](O)C[C@@H](O)CC[C@H](O)[C@@H](O)C[C@@H](O)CC(=O)O[C@H]1C)C[C@H](O)[C@H]2C(=O)O	A25838		0.13 µg/mL
CCc1ccc(/C=C2\CCc3ccccc3C2=O)cc1	Farwania		12.5 µg/mL
CCOC(=O)c1cnc(NCCCCNc2ccnc3cc(Cl)ccc23)nc1C	ATCC 24067		5.7 µg/mL